Results of unrelated studies side by side (data: NIAID ChemDB).

Shared fields: tests in culture; organism: Mycobacterium tuberculosis

MIC bound: limit read from a one-dose screen.

structure	changes	endpoint	tested at	strain or isolate	method	result
c1ccc(Oc2ccc(Nc3ncnc4ccccc34)cc2)cc1		MIC50		H37Rv	luminescence	>20 µM
CCCCn1c(-c2cc3cc(Br)ccc3oc2=O)cs/c1=N\N=C\c1cc(Br)ccc1O		MIC		H37Rv		>12.5 µg/mL
O=C(CSc1nnc(-c2ccccn2)s1)N/N=c1/scc(-c2ccccc2)n1-c1cccc(Br)c1		MIC		H37Rv		>80 µg/mL
CCOC(=O)C(C)c1nc2cc(N3CCN(C)CC3)c(F)cc2[nH]c1=O		MIC bound		H37Rv	resazurin	>6.25 µg/mL
FC(F)(F)Oc1ccc(CCNc2nc(C3CC3)nc3ccccc23)cc1		MIC50		H37Rv	luminescence	9.4 µM
Cc1ccc(-n2c(-c3ccccc3)cs/c2=N/NC(=O)CSc2nnc(-c3ccccn3)s2)cc1		MIC		Clinical isolate 331		40 µg/mL
O=[n+]1c(Sc2ccccc2)c(CBr)n([O-])c2cc(C(F)(F)F)ccc21		MIC		H37Rv		>6.25 µg/mL
Fc1ccc(Oc2cccc(CNc3ncnc4ccccc34)c2)cc1		MIC50		H37Rv	luminescence	>50 µM
CCOc1cc(/C=N/N=c2\scc(-c3cc4ccccc4oc3=O)n2C2CCCCC2)ccc1O		EC50		H37Rv		<12.5 µg/mL
Fc1cc(N2CCN(c3ccc(C(F)(F)F)cn3)CC2)ccc1CNc1ncnc2ccccc12		MIC50		H37Rv	luminescence	>20 µM
CO[C@H]1/C=C/O[C@@]2(C)Oc3c(C)c(O)c4c(O)c(c(/C=N/N5CCN(C6CCCC6)CC5)c(O)c4c3C2=O)NC(=O)/C(C)=C\C=C\[C@H](C)[C@H](O)[C@@H](C)[C@@H](O)[C@@H](C)[C@H](OC(C)=O)[C@@H]1C		MIC		Isolate 920492 rifampicin-resistant		>64 µg/mL
CC(C)C[C@@H]1NC(=O)[C@H](Cc2c[nH]c3ccccc23)NC(=O)[C@@H](CCCCN)NC(=O)[C@H](CC(N)=O)NC(=O)[C@H](C(C)C)NC(=O)[C@@H](CC(C)C)NC1=O		MIC90		CDC1551	turbidity	0.99 µM
Cc1nc(NCCc2ccc(OC(F)(F)F)cc2)c2ccc(F)cc2n1		MIC50		H37Rv	luminescence	4.82 µM
CO[C@H]1/C=C/O[C@@]2(C)Oc3c(C)c(O)c4c(O)c(c(/C=N/N5CCN(C6CCCC6)CC5)c(O)c4c3C2=O)NC(=O)/C(C)=C\C=C\[C@H](C)[C@H](O)[C@@H](C)[C@@H](O)[C@@H](C)[C@H](O)[C@@H]1C		MIC		Erdman		0.12 µg/mL
Nc1cc(O)c(C(=O)O)cc1F	Kanamycin-resistant	MIC90		H37Rv	resazurin	6.25 µg/mL
O=C(CSc1nnc(-c2ccccn2)s1)N/N=c1/scc(-c2cccc([N+](=O)[O-])c2)n1-c1ccccc1		MIC		H37Rv		40 µg/mL
CCOc1ccc2c(c1)n([O-])c1cc(Br)ccc1[n+]2=O		MIC		CS-R		3.1 µg/mL
CCCCn1c(-c2cc3ccccc3oc2=O)cs/c1=N\N=C\c1ccc(O)c(OCC)c1		inhibition	12.5 µg/mL	H37Rv		94%
Nc1ccc(C(=O)Oc2ccccc2)c(O)c1		MIC		Frankfurt		0.025 µg/mL
COc1ccc2nc(C)c3c(c2c1)C(=O)N(CCC[N+]1([O-])CC[N+]([O-])(CCCN2C(=O)c4c(c5cc(OC)ccc5[n+]([O-])c4C)C2=O)CC1)C3=O		inhibition	12.5 µg/mL	H37Rv	BACTEC	15%
Cc1cccc(-n2c(-c3ccccc3)cs/c2=N/NC(=O)CSc2nnc(-c3ccccn3)s2)c1		MIC		Clinical isolate 180		40 µg/mL
Cc1nc(Nc2ccc(Oc3cccc(C(F)(F)F)c3)cc2)c2ccc(F)cc2n1		MIC50		H37Rv	luminescence	>20 µM
Cc1c(Cl)[n+](=O)c2ccc(Cl)cc2n1[O-]		inhibition	6.25 µg/mL	H37Rv		99%
Cc1cc(C)nc(Oc2ccc(Nc3ncnc4ccccc34)cc2)n1		MIC50		H37Rv	luminescence	>20 µM
CO[C@H]1/C=C/O[C@@]2(C)Oc3c(C)c(O)c4c(O)c(c(/C=N/N5CCN(C)CC5)c(O)c4c3C2=O)NC(=O)/C(C)=C\C=C\[C@H](C)[C@H](O)[C@@H](C)[C@@H](O)[C@@H](C)[C@H](OC(C)=O)[C@@H]1C		MIC		PR503		0.08 µg/mL
O[C@@H]1[C@@H](O)[C@@H](O)CN2CC[C@H](O)[C@@H]12		MIC		H37Rv	BACTEC	≥12.5 µg/mL
COc1ccc(CCNc2ncnc3ccccc23)cc1		MIC50		H37Rv	luminescence	>10 µM
CC(C)C[C@@H]1NC(=O)[C@H](Cc2c[nH]c3ccccc23)NC(=O)[C@@H](CCCN=C(N)N)NC(=O)[C@H](CC(N)=O)NC(=O)[C@H](C(C)C)NC(=O)[C@@H](CC(C)C)NC1=O		MIC90		HN878	turbidity	0.99 µM
CN(C)n1c(O)c(N=O)sc1=S		inhibition	12.8 µg/mL	H37Rv	BACTEC	29%
O=c1[nH]c2ccc(Cl)cc2c(O)c1N=Nc1ccccc1[N+](=O)[O-]		MIC		H37Rv	resazurin	<6.25 µg/mL
Clc1ccc(CCNc2ncnc3ccsc23)cc1		MIC50		H37Rv	luminescence	>50 µM
CCOc1cc2c(cc1F)[n+](=O)c(Sc1ccccc1)c(C)n2[O-]		MIC		H37Rv		>6.25 µg/mL
COc1ccccc1OC(=O)c1ccc(N)cc1O		MIC		H37Rv (p-aminosalicylate-resistant)		75 µg/mL
O=C(CSc1nnc(-c2ccccn2)s1)N/N=c1/scc(-c2ccccc2)n1-c1ccc(Cl)cc1		MIC		H37Rv		80 µg/mL
CC1C(O)CC23COC(=O)C2=CCCC3C1(C)CCC1COC(=O)C1		MIC bound		H37Rv	BACTEC	>12.5 µg/mL
CC(C)C[C@@H]1NC(=O)[C@H](Cc2c[nH]c3ccccc23)NC(=O)[C@@H](CCCN)NC(=O)[C@H](CC(N)=O)NC(=O)[C@H](C(C)C)NC(=O)[C@@H](CC(C)C)NC1=O		EC50		HN878	turbidity	1.95 µM
COCC1OC(O[C@@H]2C3=C(C(C)C)CC[C@]3(C)/C=C3\[C@@H](CC[C@]3(O)COC)[C@@H](C)[C@H]2O)C(O)C2OC3OC12O[C@@]3(C)[C@@H]1CO1		MIC bound		H37Rv	BACTEC	>12.5 µg/mL
CO[C@H]1/C=C/O[C@@]2(C)Oc3c(C)c(O)c4c(=O)c(c5oc6cc(N7CCN(CC(C)C)CC7)cc(=O)c6nc5c4c3=C2O)NC(=O)/C(C)=C\C=C\[C@H](C)[C@H](O)[C@@H](C)[C@@H](O)[C@@H](C)[C@H](OC(C)=O)[C@@H]1C		MIC		TN640		>32 µg/mL
FC(F)(F)Oc1ccc(Oc2ccc(Nc3ncnc4ccoc34)cc2)cc1		MIC50		H37Rv	luminescence	>20 µM
CCOc1cc(/C=N/N=c2\scc(-c3cc4cc(Br)ccc4oc3=O)n2C2CCCCC2)ccc1O		inhibition	12.5 µg/mL	H37Rv		89%
O=C1NCN(c2ccccc2)C12CCN(Cc1nc3cc([N+](=O)[O-])ccc3n1-c1ccccc1)CC2		MIC bound		H37Rv	BACTEC	>6.25 µg/mL
CC(=O)c1ccc(N=Nc2c(O)c3cccc([N+](=O)[O-])c3[nH]c2=O)cc1		inhibition	6.25 µg/mL	H37Rv	resazurin	89%
CC(C)C[C@@H]1NC(=O)[C@H](Cc2c[nH]c3ccccc23)NC(=O)[C@H](CCCCN)NC(=O)[C@H](CC(N)=O)NC(=O)[C@H](C(C)C)NC(=O)[C@@H](CC(C)C)NC1=O		EC50		HN878	turbidity	>30 µM
CCCCn1c(-c2cc3cc(Br)ccc3oc2=O)cs/c1=N\N=C\c1ccc(O)c(OCC)c1		MIC		H37Rv		>12.5 µg/mL
Cc1ccc2nc(Nc3ncnc4ccccc34)sc2c1		MIC50		H37Rv	luminescence	>20 µM
Cc1c(Sc2ccccc2)[n+](=O)c2cc(F)c(F)cc2n1[O-]		MIC		H37Rv		0.78 µg/mL
CC(C)Oc1ccc(-c2ccc(Nc3ncnc4ccccc34)cc2)cc1		MIC50		H37Rv	luminescence	>10 µM
CN1c2ccccc2C2C(c3ccccc3)CC[C@@H](C(=O)N3C4C[C@]5(C)CC[C@@]4(CS3(=O)=O)C5(C)C)[C@@H]21		MIC bound		H37Rv	BACTEC	>12.5 µg/mL
Cc1nc(Nc2ccc(Oc3ccc(C(F)(F)F)cc3)cc2)c2ccc(F)cc2n1		MIC50		H37Rv	luminescence	>20 µM
COc1ccc(N=Nc2c(O)c3ccc(Cl)c(Cl)c3[nH]c2=O)cc1		inhibition	6.25 µg/mL	H37Rv	resazurin	14%
Nc1c(Br)cc(Br)c2c1C(=O)c1ccccc1C2=O		inhibition	12.5 µg/mL	H37Rv	BACTEC	-21%
CCC(C)c1cc(C)cc(OC(=O)c2ccc(N)cc2O)c1		MIC		H37Rv (streptomycin-resistant)		5 µg/mL
COc1ccc2[nH]c(=O)c(N=Nc3ccccc3)c(O)c2c1		inhibition	6.25 µg/mL	H37Rv	resazurin	0%
Fc1ccc2c(Nc3ccc(-c4cccc(C(F)(F)F)c4)cc3)ncnc2c1		MIC50		H37Rv	luminescence	>50 µM
C=C(C)/C=C/[C@]12C[C@H](C)[C@H]3CC[C@](C)(N)[C@@H](CC[C@H]1C)[C@@H]32		inhibition	16 µg/mL	H37Rv		100%
CC(=O)OC[C@H]1O[C@@H](c2cccc3c2c2ccccc2n3S(=O)(=O)c2ccccc2)[C@H](O)[C@@H]1O		MIC bound		H37Rv	BACTEC	>12.5 µg/mL
Cc1ccc(CCNc2ncnc3ccsc23)cc1		MIC50		H37Rv	luminescence	>50 µM
C=CCN1CSC(=S)N(CCc2ccc(Cl)c(Cl)c2)C1		inhibition	12.5 µg/mL	H37Rv	BACTEC	52%
C[C@@H]1Oc2nc([N+](=O)[O-])cn2C[C@@H]1OCc1ccc(OC(F)(F)F)cc1		MIC		H37Rv-T3	absorbance	>100 µM
Cc1c(Cl)nc(Nc2nc3ccccc3[nH]2)nc1Cl		inhibition	6.25 µg/mL	H37Rv	BACTEC	0%
Fc1ccc2c(Nc3ccc(N4CCCN(c5ccc(C(F)(F)F)cc5)CC4)cc3)ncnc2c1		MIC50		H37Rv	luminescence	>20 µM
O=C(NCCO)C(=O)N/N=C/c1ccc([N+](=O)[O-])o1		MIC		ETA-R		12.5 µg/mL
O=C(c1ccc(CNc2ncnc3ccccc23)cc1)N1CCOCC1		MIC50		H37Rv	luminescence	34.9 µM
COc1ccc(C(=O)NC2C(OC(C)=O)OC(COC(C)=O)C(OC(C)=O)C2OC(C)=O)cc1		MIC bound		H37Rv	BACTEC	>12.5 µg/mL
COc1ccccc1N=Nc1c(O)c2ccc([N+](=O)[O-])cc2[nH]c1=O		inhibition	6.25 µg/mL	H37Rv	resazurin	96%
CCCCN(CCCC)CCNc1ccc(C)c2sc3ccc([N+](=O)[O-])cc3c(=O)c12		inhibition	12.5 µg/mL	H37Rv	BACTEC	13%
FC(F)(F)c1ccc(Oc2ccc(Nc3ncnc4cc(Br)ccc34)cc2)cc1		MIC50		H37Rv	luminescence	>20 µM
Cc1ccc(NC(=S)NC(=O)c2ccco2)cc1Cl		MIC bound		H37Rv	BACTEC	>12.5 µg/mL
O=C(CSc1nnc(-c2ccccn2)s1)N/N=c1/scc(-c2ccc(Br)cc2)n1-c1ccccc1		MIC		Clinical isolate 331		80 µg/mL
Cc1ccc(CN2CCN(Cc3ccc(C)o3)C(C)C2)o1.Cl.Cl		inhibition	12.5 µg/mL	H37Rv	BACTEC	12%
O=C(CSc1nnc(-c2ccccn2)s1)N/N=c1/scc(-c2ccccc2)n1-c1ccccc1Cl		MIC		Clinical isolate 180		40 µg/mL
CN(C)c1ccc(/C=N/NC(=O)c2ccco2)cc1		MIC bound		H37Rv	BACTEC	>12.5 µg/mL
O=C(CSc1nnc(-c2ccccn2)s1)N/N=c1/scc(-c2ccccc2)n1-c1ccc(Br)cc1		MIC		H37Rv		>80 µg/mL
Nc1c(C(=O)O)c2nc3c(CO)cccc3oc-2cc1=O		MIC		H37Rv	BACTEC	≥12.8 µg/mL
O=c1[nH]c2cc([N+](=O)[O-])ccc2c(O)c1N=Nc1cccc(Cl)c1Cl		inhibition	6.25 µg/mL	H37Rv	resazurin	21%

Again, the opening 10 rows:

structure,changes,endpoint,tested at,strain or isolate,method,result
c1ccc(Oc2ccc(Nc3ncnc4ccccc34)cc2)cc1,,MIC50,,H37Rv,luminescence,>20 µM
CCCCn1c(-c2cc3cc(Br)ccc3oc2=O)cs/c1=N\N=C\c1cc(Br)ccc1O,,MIC,,H37Rv,,>12.5 µg/mL
O=C(CSc1nnc(-c2ccccn2)s1)N/N=c1/scc(-c2ccccc2)n1-c1cccc(Br)c1,,MIC,,H37Rv,,>80 µg/mL
CCOC(=O)C(C)c1nc2cc(N3CCN(C)CC3)c(F)cc2[nH]c1=O,,MIC bound,,H37Rv,resazurin,>6.25 µg/mL
FC(F)(F)Oc1ccc(CCNc2nc(C3CC3)nc3ccccc23)cc1,,MIC50,,H37Rv,luminescence,9.4 µM
Cc1ccc(-n2c(-c3ccccc3)cs/c2=N/NC(=O)CSc2nnc(-c3ccccn3)s2)cc1,,MIC,,Clinical isolate 331,,40 µg/mL
O=[n+]1c(Sc2ccccc2)c(CBr)n([O-])c2cc(C(F)(F)F)ccc21,,MIC,,H37Rv,,>6.25 µg/mL
Fc1ccc(Oc2cccc(CNc3ncnc4ccccc34)c2)cc1,,MIC50,,H37Rv,luminescence,>50 µM
CCOc1cc(/C=N/N=c2\scc(-c3cc4ccccc4oc3=O)n2C2CCCCC2)ccc1O,,EC50,,H37Rv,,<12.5 µg/mL
Fc1cc(N2CCN(c3ccc(C(F)(F)F)cn3)CC2)ccc1CNc1ncnc2ccccc12,,MIC50,,H37Rv,luminescence,>20 µM

ECn: concentration that inhibits the pathogen or its effect by n%. A number after MIC or MFC names an inhibition level or a share of isolates. Blank or dashed fields: not listed here. Inhibition is in % at the dose shown (toxicity tests: loss of growth or viability). Neighbouring rows are from separate reports.